A mixed list of measured activities; the numbers were collected in NIAID ChemDB.

Common to all: whole-cell or culture tests; organism: Mycobacterium tuberculosis

MIC50, MIC90 and the like: level of inhibition, or share of isolates inhibited. Fold resistance: result on the changed form divided by that on wild type. Blank or dashed fields: not listed here. ECn: concentration that inhibits the pathogen or its effect by n%. Inhibition is in % at the dose shown (toxicity tests: loss of growth or viability). Lines come from different laboratories, so protocols vary. Two numbers with a dash give a range or band.

structure	measure	method	mutations	strain	dose	result
N[C@@H]1CONC1=O	MBC	-	-	BCG	-	16 µg/mL
O=C(N/N=C/C12CC3CC(CC(C3)C1)C2)c1ccncc1	MIC	luminescence	-	H37Rv	-	0.04 µg/mL
CO[C@H]1/C=C/O[C@@]2(C)Oc3c(C)c(O)c4c(O)c(c5c(c4c3C2=O)NC2(CCN(CC(C)C)CC2)N=5)=NC(=O)/C(C)=C\C=C\[C@H](C)[C@H](O)[C@@H](C)[C@@H](O)[C@@H](C)[C@H](OC(C)=O)[C@@H]1C	MIC	-	-	1 isolates (Met515Ile Leu533Pro)	-	0.125 µg/mL
O=C(COc1cccc2c1CCC2)N/N=C/c1cc2cc(F)ccc2[nH]c1=O	MIC	resazurin / visual reading	-	H37Rv	-	25 µg/mL
CC(C)=CCOc1c2ccoc2cc2oc(=O)ccc12	MIC100	resazurin	Isoniazid-resistant	H37Rv clinical isolate CRY5	-	200 µg/mL
NC[C@H]1O[C@H](O[C@H]2[C@H](O)[C@@H](O[C@H]3O[C@H](CO)[C@@H](O)[C@H](N)[C@H]3O)[C@H](N)C[C@@H]2N)[C@H](O)[C@@H](O)[C@@H]1O	MIC	-	-	H37Rv	-	25 µg/mL
C(=N\NOCC12CC3CC(CC(C3)C1)C2)/c1ccncc1	MIC	luminescence	-	H37Rv	-	29.3 µg/mL
C[C@H]1CC[C@@H]2[C@]1(C)CC[C@@]1(C)CC[C@@](C)(O)[C@@H]3C[C@@]231	MIC	-	-	H37Rv	-	20 µg/mL
C(=N\NOCC12CC3CC(CC(C3)C1)C2)/c1cccnc1	MIC	luminescence	-	H37Rv	-	26.9 µg/mL
CO/N=C(\C(=O)N[C@@H]1C(=O)N2C(C(=O)O)=CCS[C@H]12)c1csc(N)n1	inhibition	-	-	-	100 µg/mL	88%
Cc1c(OCC(F)(F)F)cc[n+]([O-])c1CSc1nc2ccccc2[nH]1	EC50	broth dilution / resazurin	-	Erdman	-	25 µM
COC(=O)N1CCN(c2cc(-c3ccccc3)c3ccc(OC)nc3n2)CC1	inhibition	-	-	H37Rv	12.5 µg/mL	0%
CCCCCCCCCCN(CCCCCCCCCC)S[C@@H]1O[C@@H]([C@H](O)CO)[C@H](O)[C@H]1O	MIC	-	-	-	-	<5 µg/mL
S=C(Nc1ccc(C2CCCCC2)cc1)c1ccccc1	MIC	-	-	My 331/88	-	32 µM
CCOC(=O)N1CCN(c2cc(-c3ccccc3)c3ccc(Cl)nc3n2)CC1	EC50	-	-	H37Rv	-	<12.5 µg/mL
O=C(N/N=C/c1ccc(C23CC4CC(CC(C4)C2)C3)cc1)c1ccncc1	MIC	luminescence	-	H37Rv	-	0.1 µg/mL
O=C(Cc1ccccc1)N[C@@H]1C(=O)N2C(C(=O)O)=C(CN3CCN(c4cc5c(cc4F)c(=O)c(C(=O)O)cn5C4CC4)CC3)CS[C@H]12	MIC	-	-	H37Rv	-	62.3 µM
NNC(=O)c1ccncc1	MIC99	absorbance	-	MC2 6230	-	0.15 µM
CC(C)[C@@H]1C2[C@H](O)[C@]3(O)[C@@H](C)CC[C@@H]4[C@@H](C)C[C@@H]1[C@@]43C(=O)C2(C)C	inhibition	-	-	H37Rv	12.5 µg/mL	17%
C=C1C(=O)OC2C1CCC(C)C1(O)C=CC(=O)C21C	MIC	-	-	H37Rv	-	64 µg/mL
CN(C)c1ccc(NC(=S)NNC(=O)c2ccccc2)cc1	MIC	-	-	WT	-	9.92 µM
CCOC(=O)N1CCN(c2cc(-c3ccccc3)c3ccc(=O)[nH]c3n2)CC1	inhibition	-	-	H37Rv	12.5 µg/mL	12%
C=CC(=C)CCC1C(C)CCC2[C@]1(C)CCC(OC(C)=O)[C@]2(C)C(=O)O	MIC	-	-	H37Rv	-	14.4 µg/mL
Cc1c(CN2CCSCC2)cc(-c2ccc(F)cc2)n1-c1ccccc1F	MIC	-	-	H37Rv	-	2 µg/mL
CC1COc2c(N3CCN(C)CC3)c(F)cc3c(=O)c(C(=O)O)cn1c23	MIC	-	-	H37RV (KAN-R)	-	1.25 µg/mL
CCCCCCCCS(=O)(=O)CC(N)=O	MIC	-	-	42401315	-	≤6.25 µg/mL
NCC[C@H](O)C(=O)N[C@@H]1C[C@H](N)[C@@H](O[C@H]2O[C@H](CN)[C@@H](O)[C@H](O)[C@H]2O)[C@H](O)[C@H]1O[C@H]1O[C@H](CO)[C@@H](O)[C@H](N)[C@H]1O	MIC	-	-	BCG	-	0.13 µg/mL
c1ccc(Nc2nc(N/N=C3\CN4CCC3CC4)nc(N3CCCCC3)n2)cc1	MIC	MTT	-	H37Rv	-	0.1 µg/mL
Cc1ccc(NC(=S)NNC(=O)c2ccncc2)cc1	MIC	-	-	INH resistant	-	10.88 µM
CC(=O)OCC1=C(C(=O)O)N2C(=O)[C@@H](NC(=O)CSc3ccncc3)[C@H]2SC1	MIC	-	-	16 strains	-	100–400 µg/mL
CCOC(=O)C(Cc1ccccc1)NP(=O)(CCC(=O)N1C[C@H](OCC(O)P(=O)(NC(Cc2ccccc2)C(=O)OCC)NC(Cc2ccccc2)C(=O)OCC)[C@H](n2cnc3c(=O)[nH]c(N)nc32)C1)NC(Cc1ccccc1)C(=O)OCC	MIC90	resazurin / fluorescence	-	H37Ra	-	20 µM
O=C(NNC(=S)Nc1ccc([N+](=O)[O-])cc1)c1ccncc1	MIC	-	-	INH resistant	-	1.2 µM
NNC(=O)c1ccncc1	MBC	-	-	-	-	0.13 µg/mL
O=C(Nc1ccc2c(c1)OCCO2)N1CCC2(CC1)OCCc1sccc12	MIC90	resazurin	-	H37Rv	-	0.3 µM
NC1[C@H]2CN(c3nc4c(cc3F)c(=O)c(C(=O)O)cn4-c3ccc(F)cc3F)C[C@@H]12	MIC90	-	-	33 strains	-	32 µg/mL
CC(=O)O[C@H]1C[C@@]2(C)[C@@H](C[C@@H](O)[C@H]3[C@@]4(C)CC[C@@H](O)[C@@H](C)[C@@H]4CC[C@@]32C)/C1=C(\CCC=C(C)C)C(=O)O	MIC50	-	-	19 strains (drug-resistant)	-	≤16 µg/mL
C=C1C(=O)O[C@@H]2C[C@@]3(C)C=CC(=O)C(=C)[C@@H]3C[C@H]12	MIC	-	-	H37Rv	-	16 µg/mL
COc1ccc(NC(=S)NNC(=O)c2ccncc2)cc1	MIC	-	-	WT	-	10.31 µM
C[C@H]1NCc2cc(-c3ccc4c(=O)c(C(=O)O)cn(C5CC5)c4c3OC(F)F)ccc21	MIC	-	-	3 isolates	-	2–4 µg/mL
O=C(N/N=C/C1C2CC3CC(C2)CC1C3)c1ccncc1	MIC	luminescence	-	-	-	0.06 µg/mL
Nc1ccc2c(-c3ccccc3)cc(N3CCNCC3)nc2n1	EC50	-	-	H37Rv	-	>12.5 µg/mL
CO[C@H]1/C=C/O[C@@]2(C)Oc3c(C)c(OC(C)=O)c4c(c3C2=O)C(=O)C=C(NC(=O)/C(C)=C\C=C\[C@H](C)[C@H](O)[C@@H](C)[C@@H](O)[C@@H](C)[C@H](OC(C)=O)[C@@H]1C)C4=O	MIC	-	-	ETA-R	-	0.05 µg/mL
CCCCc1ccc(NC(=S)c2cccc(OC)c2)cc1	MIC	-	-	My 331/88	-	32 µM
CO[C@@]1(NC(=O)Cc2cccs2)C(=O)N2C(C(=O)O)=C(COC(N)=O)CS[C@@H]21	inhibition	-	-	-	100 µg/mL	97%
O=c1ccc2c(-c3ccccc3)cc(N(CCO)CCO)nc2[nH]1	inhibition	-	-	H37Rv	12.5 µg/mL	1%
CC(C)c1ccc(NC(=S)c2cccc(Cl)c2)cc1	MIC	-	-	My 331/88	-	32 µM
c1cc2c(s1)CCOC21CCN(Cc2ccc3c(c2)OCCO3)CC1	fold resistance	fluorescence	MmpL3: Ala677Val	H37Rv	-	1.6
COc1ccc2nc(S(=O)Cc3ncc(C)c(OC)c3C)[nH]c2c1	EC50	broth dilution / resazurin	-	Erdman	-	>50 µM
CC(=O)Nc1ccc2c(-c3ccccc3)cc(Cl)nc2n1	EC50	-	-	H37Rv	-	>12.5 µg/mL
C(=N\NOCC12CC3CC(C1)CC(CON/N=C/c1ccncc1)(C3)C2)/c1ccncc1	MIC	luminescence	-	H37Rv	-	>100 µg/mL
CC[C@H]1OC(=O)[C@H](C)[C@@H](O[C@H]2C[C@@](C)(OC)[C@@H](O)[C@H](C)O2)[C@H](C)[C@@H](O[C@@H]2O[C@H](C)C[C@H](N(C)C)[C@H]2O)[C@](C)(OC)C[C@@H](C)C(=O)[C@H](C)[C@@H](O)[C@]1(C)O	MBC	-	-	BCG	-	>0.5 µg/mL
S=C(Nc1ccc(C2CCCCC2)cc1)c1cccc(Cl)c1	MIC	-	-	My 331/88	-	16 µM
NNC(=O)c1ccncc1	MIC	-	-	INH resistant	-	91.14 µM
NCc1ccccc1CC(=O)N[C@@H]1C(=O)N2C(C(=O)O)=C(CSc3nnnn3CC(=O)O)CS[C@H]12	inhibition	BACTEC	-	65 isolates	12.5 µg/mL	40%
CN[C@@H]1[C@H](O[C@H]2[C@H](O[C@H]3[C@H](O)[C@@H](O)[C@H](N=C(N)N)[C@@H](O)[C@@H]3N=C(N)N)O[C@@H](C)[C@]2(O)C=O)O[C@@H](CO)[C@H](O)[C@H]1O	MIC	broth dilution / visual reading	Streptomycin isoniazid rifampicin resistant	9449/2007	-	>32 µM
CC[C@@H](CO)NCCN[C@@H](CC)CO	MIC	-	-	H37Rv	-	1.25 µg/mL
CC(C)c1ccc(NC(=S)c2cccc(Br)c2)cc1	MIC	-	-	My 331/88	-	32 µM
Oc1ccc(CCN=C=S)cc1	MIC	visual reading	-	H37Rv	-	16 µg/mL
Cc1c(OCC(F)(F)F)ccnc1CS(=O)c1nc2ccc(O)cc2[nH]1.[K+]	EC50	broth dilution / resazurin	-	Erdman	-	>50 µM
CC(C)(C)c1ccc(N2CCN(Cc3ccc([N+](=O)[O-])o3)CC2)cc1	MIC	resazurin	Isoniazid- and rifampicin-resistant	MDR	-	>0.029 µM

A second listing of 4 rows from above:

structure | measure | method | mutations | strain | dose | result
CCOC(=O)N1CCN(c2cc(-c3ccccc3)c3ccc(Cl)nc3n2)CC1 | EC50 | - | - | H37Rv | - | <12.5 µg/mL
COc1ccc2nc(S(=O)Cc3ncc(C)c(OC)c3C)[nH]c2c1 | EC50 | broth dilution / resazurin | - | Erdman | - | >50 µM
NC[C@H]1O[C@H](O[C@H]2[C@H](O)[C@@H](O[C@H]3O[C@H](CO)[C@@H](O)[C@H](N)[C@H]3O)[C@H](N)C[C@@H]2N)[C@H](O)[C@@H](O)[C@@H]1O | MIC | - | - | H37Rv | - | 25 µg/mL
C[C@H]1CC[C@@H]2[C@]1(C)CC[C@@]1(C)CC[C@@](C)(O)[C@@H]3C[C@@]231 | MIC | - | - | H37Rv | - | 20 µg/mL